Test system: AncLDH*
Conditions: 200 uM NADH, 50 mM Tris pH 7.5, 50 mM KCl, 25 C

CC(=O)C(=O)O [pyruvate]
KM: AncLDH* is a strict LDH

Reference: article PMC4109310, “An atomic-resolution view of neofunctionalization in the evolution of apicomplexan lactate dehydrogenases” (eLife, 2014)
